Inhibition data for 49 molecules are collected here from PubChem BioAssay AID485275 (NMMLSC, 2010).

Only a part is listed here, and it is no random draw. Active and inactive are the calls of the source.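 Rule for the calls: active = plate passing quality check with inhibition over a set limit, or well fluorescence over plate mean plus 4 SD; inactive = the rest.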

As usually defined, the inhibition is the drop in the measured response relative to a control, in per cent.

The nature of the assay: inhibitors of Candida efflux pumps in yeast, primary screen, S. cerevisiae, Nile Red, multiplex (AID 485275).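 Note: Nile Red retained in pooled yeast measured as flow cytometry median fluorescence; 0% = buffer negative control and 100% = Enniatin B positive control; higher means more Nile Red kept so more efflux inhibition.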 Particulars: S. cerevisiae Candida pump triplex, at 10 µM, hits give high values.
Regarding `Nc1cccc2ccc([As](=O)(O)O)cc12`, the inhibition was inactive: 0.27%.
To `NC(=O)c1cc([N+](=O)[O-])cc([N+](=O)[O-])c1N` belongs inactive: 0.13%.
To `CN(C(=O)Cc1ccc(Cl)c(Cl)c1)[C@H]1CCCC[C@H]1N1CCCC1` belongs inactive: -0.18%; to `Cc1ccc(N/C(=N/P(=O)(N2CCOCC2)N2CCOCC2)N2CCOCC2)cc1`, inactive: -0.09%; to `COc1ccccc1OP(=O)(Nc1ccc(C)cn1)Oc1ccccc1OC`, inactive: -0.08%.
As for `Cc1ccc(OP(=O)(Nc2nccs2)Oc2ccc(C)cc2)cc1`, the figure is inactive: 0.08%; as for `Clc1ccc(Cl)c(NC2=NCC(CBr)S2)c1` (centres undefined), inactive: -0.01%; as for `CN1CCCC(OC(=O)C(c2ccccc2)c2ccccc2)C1` (centres undefined), inactive: -0.01%.
As to `CC(C)CC(=O)NC(Sc1ccc(Cl)cc1)C(Cl)(Cl)Cl` (centres undefined), the inhibition was inactive: 0.1%.
To `Nc1cc(N)c2nonc2c1[N+](=O)[O-]` belongs inactive: 0.2%; to `Oc1ccccc1CNc1ccccn1`, inactive: -0.03%.
As to `Cc1c2non([O-])c-2c(C)[n+](=O)[n+]1[O-]`, the inhibition was inactive: -0.07%.
As for `O=C(NC(Sc1ccncn1)C(Cl)(Cl)Cl)c1ccccc1` (centres undefined), the figure is inactive: -0.24%; as for `O=P1(Nc2nc3ccc(Cl)cc3s2)COc2ccccc2O1` (centres undefined), inactive: 0.02%; as for `CCOc1ccc(C2=NCC(CBr)S2)cc1` (centres undefined), inactive: 0.08%.
To `CC(C)(C)C(=O)NC(Sc1ccccc1)C(Cl)(Cl)Cl` (centres undefined) belongs inactive: -0.02%; to `CC(=O)c1ccc(N2CC2c2ccncc2)cc1` (centres undefined), inactive: -0.02%; to `Cc1ccccc1CN(C)C(=O)COC(=O)C(O)(c1ccccc1)c1ccccc1`, inactive: 0.21%.
As for `C[C@@H]1C=CCP(=O)(Oc2ccccc2)O1` (some centres undefined), the figure is inactive: -0.12%; as for `C[C@H]1OP(=O)(Oc2ccccc2)C[C@@H]2O[C@@H]21` (some centres undefined), inactive: -0.08%; as for `CC(=O)Nc1ccc([As](=O)(O)O)c(O)c1`, inactive: 0.52%.
In the case of `CC(=O)Nc1ccc(Oc2c([N+](=O)[O-])cc([N+](=O)[O-])cc2[N+](=O)[O-])cc1`, the inhibition is inactive: -0.01%.
As for `CCNC(=S)/N=C(\N)N[N+](=O)[O-]`, the figure is inactive: -0.04%; as for `O=C(NC1CCS(=O)(=O)C1)NP(=S)(Oc1ccccc1)Oc1ccccc1` (centres undefined), inactive: 0.08%.
To `c1ccc(-c2nn[nH]n2)c(-c2nn[nH]n2)c1` belongs inactive: 0.15%.
To `CCOC(=O)NC(Sc1ccccc1)C(Cl)(Cl)Cl` (centres undefined) belongs inactive: 0.22%.
In the case of `Cc1ccc(NP(=O)(Oc2cccc(C)c2)Oc2cccc(C)c2)nc1`, the inhibition is inactive: 0.15%.
On to `COC(=O)c1cc2c(s1)N=C(c1ccccc1)N(C)P2(=O)N1CCOCC1` (centres undefined), for which the inhibition is inactive: -0.02%.
To `Cc1ccc(OP(=O)(Nc2ccccn2)Oc2ccc(C)cc2)cc1` belongs inactive: -0.02%; to `CC(=O)NC(SC(=S)N(CC(C)C)CC(C)C)C(Cl)(Cl)Cl` (centres undefined), inactive: -0.26%; to `O=C(OC1CN2CCC1CC2)c1ccccc1` (centres undefined), inactive: -0.02%.
Turning to `CCC(=O)N1C2C3N(C(=O)CC)C1C1N(C(=O)CC)C(C(N1C(=O)CC)N3C(=O)CC)N2C(=O)CC`, the inhibition was inactive: 0.02%.
As for `Cc1ccccc1OP(=O)(Nc1ccccn1)Oc1ccccc1C`, the figure is inactive: -0.04%.
Take `CC(NC(=O)COC(=O)C(O)(c1ccccc1)c1ccccc1)c1ccccc1` (centres undefined): the inhibition is inactive: 0.53%.
To `CN(C)C(=O)Oc1noc2ccccc12` belongs inactive: 0.2%; to `O=P(Nc1ccccn1)(c1ccc(Br)cc1)c1ccc(Br)cc1`, inactive: -0.03%.
As for `CN(C)C1(CNC(=O)c2ccc(Cl)c(S(N)(=O)=O)c2)CCCCC1`, the figure is inactive: -0.11%.
Consider `O=P(Nc1nc2ccccc2s1)(c1ccccc1)c1ccccc1`, for which the inhibition is inactive: -0.13%.
To `C[C@H]1OP(=O)(Oc2ccccc2)[C@H](O)[C@H](O)[C@H]1N=[N+]=[N-]` (some centres undefined) belongs inactive: -0.12%; to `O=[N+]([O-])c1ccc(O)c(/C=N/Nc2ccc([N+](=O)[O-])cc2[N+](=O)[O-])c1`, inactive: 0.04%.
To `O=[N+]([O-])c1ncn(CCn2cnc([N+](=O)[O-])n2)n1` belongs inactive: -0.06%; to `CC(=O)NC(SC(=S)N(C)C)C(Cl)(Cl)Cl` (centres undefined), inactive: -0.04%; to `O=[As](O)(c1ccccc1)c1ccc(O)cc1`, inactive: 0.16%.
To `Nc1ccc([As](=O)(O)c2ccc([N+](=O)[O-])cc2)cc1` belongs inactive: 0.01%; to `C(Cc1nn[nH]n1)Cc1nn[nH]n1`, inactive: -0.18%.
In the case of `O=C(OC1CN2CCC1CC2)c1cccc(Cl)c1` (centres undefined), the inhibition was inactive: 0.04%.
As for `CC(C)C(=O)NC(Sc1ccccc1)C(Cl)(Cl)Cl` (centres undefined), the figure is inactive: 0.37%; as for `O=P(Nc1nccs1)(c1ccccc1)c1ccccc1`, inactive: 0.01%; as for `c1nnnn1CCn1cnnn1`, inactive: 0.15%.
